Results published in patent US6479673B1, “Antiretroviral enantiomeric nucleotide analogs” (Institute of Organic Chemistry and Biochemistry of the …, priority 1992, dated 2002).

System: Moloney murine sarcoma virus (MSV)
Test: MSV infection in newborn NMRI mice, intraperitoneal administration
Assay type: in vivo
Description: Two gram newborn NMRI mice were injected intramuscularly in the left hind leg with 50 μl of 250-fold diluted stock preparation of Moloney murine sarcoma virus. Starting 2-4 hours before virus infection, each animal was injected intraperitoneally in groups of 10 with a single dose of test compound with 50, 20 or 10 mg/kg of the resolved compounds of the Formula I or prototype compounds (for abbreviations, see Footnote to Table 1); compounds (R)-PMPA and (R)-PMPDAP were administered also at the dose of S and 2 mg/kg. Another group of mice (20 animals) was administered RPMI-1640 medium as placebo. All compounds were solubilized in RPMI-1640 medium. The mice were observed daily for 20 days and the day of tumor initiation and the day of animal death was recorded for each animal. Statistical analyses were performed by calculating the standard deviation.

9-(S)-(2-Phosphonomethoxypropyl)adenine
Mean day of animal death (10 mg/kg single dose i.p.): 10.9 ± 0.88 days
Mean day of animal death (20 mg/kg single dose i.p.): 10.9 ± 0.88 days
